PSTVd stem 3 mutant pool in Nicotiana benthamiana

Source: Wu et al. 2024 (doi:10.1371/journal.ppat.1012142), supplementary data.

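A pool of all variants was put on leaves of three Nicotiana benthamiana plants. Samples came from the inoculated region at 5 days, the leaf margin at 10 and upper systemic leaves at 12.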

PSTVd intermediate strain, stem 3: wild type GUGGUUCCGGAACCGC, pool pattern GUGGUUCCGNANNCNN; upper and lower strand joined, each 5' to 3', the first 8 letters being the upper strand.

Values are reads per thousand in the sample; higher means more abundant, 0 means not found. Each value is the mean of three plants. "Pool" is the share in the plasmid pool used as inoculum, on the same scale. The inoculated region was read from the minus strand, the other sites from the plus strand. For reference, wild type rose from 17.3 per thousand in the pool to 330, 345, 235 (inoculated region), 794, 766, 816 (leaf margin) and 830, 792, 869 (systemic leaves).

GUGGUUCCGCACCCGU (pool 0.816) read inoculated region 0.306; leaf margin 0; systemic leaves 0.
GUGGUUCCGCAAUCGA (pool 1.34) read inoculated region 0.948; leaf margin 0.210; systemic leaves 0.0496.
GUGGUUCCGCAUGCCG (pool 0.893) read inoculated region 0.358; leaf margin 0.0106; systemic leaves 0.
GUGGUUCCGCAGCCUU (pool 0.877) read inoculated region 0.723; leaf margin 0.0106; systemic leaves 0.
GUGGUUCCGUAGCCUU (pool 1.06) read inoculated region 0.695; leaf margin 0.0106; systemic leaves 0.
GUGGUUCCGUAGGCCG (pool 2.62) read inoculated region 1.65; leaf margin 0.0106; systemic leaves 0.122.
GUGGUUCCGGAUCCGC (pool 1.05) read inoculated region 0.720; leaf margin 0.531; systemic leaves 0.589.
GUGGUUCCGGAUGCCU (pool 0.785) read inoculated region 0.313; leaf margin 0.0332; systemic leaves 0.
GUGGUUCCGAACCCGA (pool 0.954) read inoculated region 0.324; leaf margin 0.0226; systemic leaves 0.
GUGGUUCCGCAUUCCC (pool 1.31) read inoculated region 0.609; leaf margin 0.0215; systemic leaves 0.0311.
GUGGUUCCAGUUGGUU (pool 0.339) read inoculated region 0.984; leaf margin 0.299; systemic leaves 2.02.
GGGGGUCCGAAACCCC (pool 0.0154) read inoculated region 0; leaf margin 0; systemic leaves 0.
GUGGUUCCGUAUUCGG (pool 1.05) read inoculated region 0.317; leaf margin 0.0241; systemic leaves 0.
GUGGUUCCGGAGUCUU (pool 0.816) read inoculated region 0.794; leaf margin 0; systemic leaves 0.
GUGGUUCCGUAGACCG (pool 0.985) read inoculated region 0.251; leaf margin 0.0106; systemic leaves 0.
GUGGUUCCGGAUACGU (pool 0.893) read inoculated region 0.706; leaf margin 0.287; systemic leaves 0.
GUGGUUCCGGACUCAC (pool 0.923) read inoculated region 0.647; leaf margin 0.0120; systemic leaves 0.
GUUGUUCCUGAACCGC (pool 0.0154) read inoculated region 0.0267; leaf margin 0.0307; systemic leaves 0.0267.
GUGGUUCCGUACACGG (pool 0.954) read inoculated region 0.369; leaf margin 0.0106; systemic leaves 0.
GUGGUUCCGGACGCGA (pool 0.939) read inoculated region 0.292; leaf margin 0.0212; systemic leaves 0.
GUGGUUCCGUAGCCAC (pool 1.43) read inoculated region 0.924; leaf margin 0.00944; systemic leaves 0.0808.
GUGGUUCCGGACACCU (pool 0.769) read inoculated region 0.316; leaf margin 0; systemic leaves 0.
GUGGUUCCGAACCCCU (pool 0.785) read inoculated region 0.790; leaf margin 0.0602; systemic leaves 0.
GUGGUUCCGAACGCUU (pool 0.893) read inoculated region 0.831; leaf margin 0; systemic leaves 0.
GUGGUUCCGAACGCCU (pool 0.970) read inoculated region 0.761; leaf margin 0.422; systemic leaves 0.
GUGGUUCCGUAAGCUA (pool 0.970) read inoculated region 0.284; leaf margin 0; systemic leaves 0.
AUGGUUCCGGACCCCC (pool 0.0154) read inoculated region 0; leaf margin 0; systemic leaves 0.
GUGGUUCCGCACGCGA (pool 1.03) read inoculated region 0.315; leaf margin 0.00944; systemic leaves 0.

2 of these entries, quoted again:

For GUGGUUCCGGAUACGU (pool 0.893) the result was inoculated region 0.706; leaf margin 0.287; systemic leaves 0.
For GUGGUUCCGGACGCGA (pool 0.939) the result was inoculated region 0.292; leaf margin 0.0212; systemic leaves 0.

Samples held 27,691 to 54,225 reads, so the smallest values rest on one or two reads. The authors trace changes outside the varied positions to PCR and sequencing errors or to mutation in the plant; presence does not show that a variant is infectious alone.